Experimental data published in patent US7022734B2, “Treatment of septic shock” (dated 2006).

System: endotoxin-induced fulminate septic shock
Experiment: C. parvum/LPS-induced septic shock in mice (Mouse Acute Septic-Shock model), survival
Settings: male CD-1 mice, 2 hours before and at the time of endotoxin injection
[1] = route IV, dose 10 mg/kg, 10 mg/kg

Row | Substance | % Survival at 48 hrs (route IP, dose 1 mg/kg) [%] | Survivors/Total at 48 hrs (route IP, dose 1 mg/kg) | % Survival at 48 hrs (route IP, dose 10 mg/kg) [%] | Survivors/Total at 48 hrs (route IP, dose 10 mg/kg) | % Survival at 48 hrs (route IV, dose 1 mg/kg) [%] | Survivors/Total at 48 hrs (route IV, dose 1 mg/kg) | % Survival at 48 hrs (route IV, dose 10 mg/kg) [%] | Survivors/Total at 48 hrs (route IV, dose 10 mg/kg) | other results
1 | 1,1′-ferrocenedimethanol | 62.5 | 5/8 | 75 | 6/8 | – | – | – | – | –
2 | Bathopheneanthroline disulphonic acid | – | – | – | – | 87.5 | 7/8 | 25 | 2/8 | –
3 | Diethylenetriaminepentaacetic acid iron(III) | – | – | – | – | 100 | 8/8 | 50 | 4/8 | –
4 | Ethyl α-acetyl-4-(methoxycarbonyl)benzoylacerate, copper(II) | 62.5 | 5/8 | 37.5 | 3/8 | – | – | – | – | –
5 | Ferric pyridoxal isonicanoyl hydrazone | – | – | 75 | 6/8 | – | – | – | – | –
6 | Ferrioxamine B | – | – | – | – | – | – | – | – | % Survival at 48 hrs (route IV, dose 5 mg/kg): 87.5%; Survivors/Total at 48 hrs (route IV, dose 5 mg/kg): 7/8
7 | Ferrous gluconate | – | – | – | – | 37.5 | 3/8 | 75 | 6/8 | –
8 | Hexaaminenickel(II)chloride | 50 | 4/8 | 50 | 4/8 | – | – | – | – | –
9 | Iron(III)citrate | – | – | – | – | 62.5 | 5/8 | 50 | 4/8 | –
10 | Tris(acetylacetonate manganese: III) | 62.5 | 5/8 | 37.5 | 3/8 | – | – | – | – | –
11 | Tris(ethylenediamine)nickel(II) sulphate | – | – | – | – | – | – | – | – | % Survival at 48 hrs [1]: 62.5% and 75%; Survivors/Total at 48 hrs [1]: 5/8 and 6/8

Where “and” joins values, the source holds several entries; their conditions need not be identical. Identical values can stand only once.
